Assay results taken from patent US20230348569A1 (published 2023).

Target: MERS-CoV (SARS-CoV-2) Spike Protein S1 (aa 1-725, His Tag) (Sino 40069-V08H) (MERS-CoV, UniProt K9N5Q8 18-725)

Binder | Binding signal (MFI)
mAb10984 (antibody, V domains shown) VH: EVQLVESGGGLVQPGGSLRLSCAASGLTVNRNYMSWVRQAPGKGLEWVSLIYSGGSTYYADSVKGRFTISRDNSKNTLYLQMNSLRLEDTAVYYCARGELGIPYGMDVWGQGTTVTVSS VL: QSVLTQPPSVSAAPGQKVTISCSGSSSNIGNNYVSWYQQLPGTAPKLLIYDNNKRPSGIPDRFSGSKSGTSATLGITGLQTGDEADYYCGTWDSSLSAGVFGGGTKLTVLG | 13 MFI
mAb10985 (antibody, V domains shown) VH: EVQLVESGGGLVQPGRSLRLSCAASGFTFDDYAMHWVRQAPGKGLEWVSGISWNRGSIGYADSVKGRFTISRDNAKNSLYLQMSSLRAEDTALYYCAKDGERWDSVVVPSARNGMDVWGQGTTVTVSS VL: QSVLTQPPSVSGAPGQRVTISCTGSSSNIGAGYDVHWYQQLPGTAPKLLIYGNSNRPSGVPDRFSGSKSGTSASLAITGLQAEDEADYYCQSYDSSLSGSYVFGTGTKVTVLG | 14 MFI
